Compound potency records, mixed from different reports. Data source: NIAID ChemDB in PubChem.

Shared fields: growth or infection tests; agent: Cryptococcus neoformans

ECn is the concentration giving n% inhibition of infection, replication or growth. A number after MIC or MFC names an inhibition level or a share of isolates. a–b is a range or a potency band. Neighbouring rows are from separate reports.

{"compound": "CO[C@@H]1[C@@H](O)[C@H](O[C@@H]2[C@@H](O)[C@H](O[C@H]3[C@H](O)[C@@H](O)[C@H](O[C@H]4[C@H](O[C@H]5CC[C@]6(C)C7=C[C@H](O)[C@]89C(=O)O[C@@](C)(CCC=C(C)C)[C@@]8(O)CC[C@@]9(C)[C@@H]7CC[C@H]6C5(C)C)OC[C@@H](O[C@@H]5O[C@H](CO)[C@@H](O)[C@H](O[C@@H]6O[C@H](CO)[C@@H](O)[C@H](OC)[C@H]6O)[C@H]5O)[C@@H]4O)O[C@@H]3C)O[C@H](CO)[C@H]2O)O[C@H](CO)[C@H]1O", "strain": "ATCC32609", "measure": "MIC80", "value": "0.69 µM"}
{"compound": "CCCCCCCCCCCCNC1CCc2ccc(O)cc2C1", "measure": "MIC", "value": "2 µM"}
{"compound": "O=C(O)C(Cc1cnc[nH]1)[NH][Sn]([c]1ccccc1)([c]1ccccc1)[c]1ccccc1", "measure": "MIC", "value": "<12.5 µg/mL"}
{"compound": "CCCCCOc1ccc(-c2ccc(-c3ccc(C(=O)N[C@H]4C[C@@H](O)[C@@H](O)NC(=O)[C@@H]5[C@@H](O)[C@@H](C)CN5C(=O)[C@H]([C@H](C)O)NC(=O)[C@H]([C@H](O)[C@@H](O)c5ccc(O)cc5)NC(=O)[C@@H]5C[C@@H](O)CN5C(=O)[C@H]([C@H](C)O)NC4=O)cc3)cc2)cc1", "measure": "MIC50", "value": ">8 µg/mL"}
{"compound": "CCCCCCCCCCCCNC1CCc2cccc(OC)c2C1", "measure": "MIC", "value": "1 µM"}
{"compound": "C[C@@H](c1ncncc1F)[C@](O)(Cn1cncn1)c1ccc(F)cc1F", "measure": "MIC90", "value": "0.06–0.25 µg/mL"}
{"compound": "CC1OC(OC2C(O[C@H]3CC[C@@]4(C)C(CC[C@]5(C)C4CC=C4C6CC(C)(C)CC[C@]6(C(=O)O)CC[C@]45C)[C@]3(C)CO)OCC(O)C2O)C(O)C(OC2OCC(O)C(O)C2O)C1O", "strain": "KCTC 7224", "measure": "MIC", "value": "25 µg/mL"}
{"compound": "C=CCc1ccc(O)c(-c2ccc(O)c(CC=C)c2)c1", "strain": "KCTC 7224", "measure": "MIC", "value": "50 µg/mL"}
{"compound": "C=C(C)CCC[C@]1(C)OC(=O)[C@]23[C@@H](O)C=C4[C@@H](CC[C@H]5C(C)(C)[C@@H](O[C@@H]6OC[C@@H](O[C@@H]7O[C@H](CO)[C@@H](O)[C@H](O[C@@H]8O[C@H](CO)[C@@H](O)[C@H](OC)[C@H]8O)[C@H]7O)[C@H](O)[C@H]6O[C@@H]6O[C@H](C)[C@@H](O[C@@H]7O[C@H](CO)[C@@H](O)[C@H](O[C@@H]8O[C@H](CO)[C@@H](O)[C@H](OC)[C@H]8O)[C@H]7O)[C@H](O)[C@H]6O)CC[C@]45C)[C@]2(C)CC[C@@H]31", "strain": "ATCC32609", "measure": "MIC80", "value": "0.7 µM"}
{"compound": "[Cl][Sn]([c]1ccccc1)([c]1ccccc1)[c]1ccccc1", "measure": "MIC", "value": "1.56 µg/mL"}
{"compound": "Nc1[nH]c(=O)ncc1F", "measure": "MIC50", "value": "1–4 µg/mL"}
{"compound": "CCCCCCCCNC1CCc2cc(O)ccc2C1", "measure": "MIC", "value": "32 µM"}
{"compound": "CCC(C)CC(C)CCCCCCCCC(=O)N[C@H]1C[C@@H](O)[C@H](NCCN)NC(=O)[C@@H]2[C@@H](O)CCN2C(=O)[C@H]([C@H](O)CCN)NC(=O)[C@H]([C@H](O)[C@@H](O)c2ccc(O)cc2)NC(=O)[C@@H]2C[C@@H](O)CN2C(=O)[C@H]([C@@H](C)O)NC1=O", "measure": "MIC", "value": "2–8 µg/mL"}
{"compound": "CCCCCCCCCNC1CCc2cc(O)ccc2C1", "measure": "MIC", "value": "8 µM"}
{"compound": "COc1cc(O)c2c(c1)C(=O)c1c(cc3c(c1O)-c1c(cc(C)c(C(=O)N[C@H](C)C(=O)O)c1O)[C@H](O[C@@H]1O[C@H](C)[C@H](N)[C@H](O[C@@H]4OC[C@@H](O)[C@H](O)[C@@H]4O)[C@H]1O)[C@H]3O)C2=O", "strain": "D49", "measure": "MIC", "value": "1.6 µg/mL"}
{"compound": "CC/C=C/C(CC)CCC[C@@]1(CC)C[C@H](CC)[C@H](CC(=O)O)OO1", "measure": "EC50", "value": "2.5 µg/mL"}
{"compound": "COC(=O)Nc1nc2ccccc2[nH]1", "strain": "IU4", "measure": "EC50", "value": "2 µg/mL"}
{"compound": "CO[C@@H]1[C@@H](O)[C@H](O[C@@H]2[C@@H](O)[C@H](O[C@H]3[C@H](O)[C@@H](O)[C@H](O[C@H]4[C@H](O[C@H]5CC[C@]6(C)C7=C[C@H](O)[C@]89C(=O)O[C@@](C)(CCCC(C)C)[C@H]8CC[C@@]9(C)[C@@H]7CC[C@H]6C5(C)C)OC[C@@H](O[C@@H]5O[C@H](CO)[C@@H](O)[C@H](O[C@@H]6O[C@H](CO)[C@@H](O)[C@H](OC)[C@H]6O)[C@H]5O)[C@@H]4O)O[C@@H]3C)O[C@H](CO)[C@H]2O)O[C@H](CO)[C@H]1O", "strain": "ATCC32609", "measure": "MIC80", "value": "0.7 µM"}
{"compound": "CCC[CH2][Sn]([CH2]CCC)([NH]C(Cc1c[nH]c2ccccc12)C(=O)O)[O]C(=O)C(N)Cc1c[nH]c2ccccc12", "measure": "MIC", "value": "12.5 µg/mL"}
{"compound": "CO[C@@H]1[C@@H](O)[C@H](O[C@@H]2[C@@H](O)[C@H](O[C@H]3[C@H](O)[C@@H](O)[C@H](O[C@H]4[C@H](O[C@H]5CC[C@]6(C)C7=C[C@H](O)[C@]89C(=O)O[C@@](C)(CCCC(C)(C)OC(C)=O)[C@H]8CC[C@@]9(C)[C@@H]7CC[C@H]6C5(C)C)OC[C@@H](O[C@@H]5O[C@H](CO)[C@@H](O)[C@H](O[C@@H]6O[C@H](CO)[C@@H](O)[C@H](OC)[C@H]6O)[C@H]5O)[C@@H]4O)O[C@@H]3C)O[C@H](CO)[C@H]2O)O[C@H](CO)[C@H]1O", "strain": "ATCC32609", "measure": "MIC80", "value": "2.7 µM"}
{"compound": "CCCCCCCCCCCCNC1CCc2ccc(OC)cc2C1", "measure": "MIC", "value": "4 µM"}
{"compound": "C[C@@H]1O[C@@H](O[C@H]2[C@H](O[C@H]3CC[C@@]4(C)[C@@H](CC[C@]5(C)[C@@H]4CC=C4[C@@H]6CC(C)(C)CC[C@]6(C(=O)O)CC[C@]45C)[C@]3(C)CO)OC[C@H](O)[C@@H]2O)[C@H](O)[C@H](O)[C@H]1O", "strain": "KCTC 7224", "measure": "MIC", "value": "25 µg/mL"}
{"compound": "COc1ccc2c(c1)CCC(NCc1ccccc1)C2", "measure": "MIC", "value": "64 µM"}
{"compound": "CCCCNC(=O)n1c(NC(=O)OC)nc2ccccc21", "strain": "IU8698", "measure": "EC90", "value": "3.8 µg/mL"}
{"compound": "COc1cc(O)c2c(c1)C(=O)c1c(cc3c(c1O)-c1c(cc(C)c(C(=O)NC(CO)C(=O)O)c1O)[C@H](OC1OC(C)C(O)C(OC4OCC(O)C(O)C4O)C1O)C3O)C2=O", "strain": "D49", "measure": "MIC", "value": "3.1 µg/mL"}
{"compound": "CN[C@@H]1[C@H](O)[C@@H](O)[C@H](O[C@H]2c3cc(C)c(C(=O)N[C@H](C)C(=O)O)c(O)c3-c3c(cc4c(c3O)C(=O)c3cc(OC)cc(O)c3C4=O)[C@@H]2O)O[C@@H]1C", "strain": "D49", "measure": "MIC", "value": "0.8 µg/mL"}
{"compound": "CCCOc1ccc2nc(NC(=O)OC)[nH]c2c1", "strain": "IU8698", "measure": "EC50", "value": "<2.1 µg/mL"}
{"compound": "OC(Cn1cncn1)(Cn1cncn1)c1ccc(F)cc1F", "strain": "ATCC32609", "measure": "MIC80", "value": "0.82 µM"}

The last 3 rows once more:

compound | strain | measure | value
CN[C@@H]1[C@H](O)[C@@H](O)[C@H](O[C@H]2c3cc(C)c(C(=O)N[C@H](C)C(=O)O)c(O)c3-c3c(cc4c(c3O)C(=O)c3cc(OC)cc(O)c3C4=O)[C@@H]2O)O[C@@H]1C | D49 | MIC | 0.8 µg/mL
CCCOc1ccc2nc(NC(=O)OC)[nH]c2c1 | IU8698 | EC50 | <2.1 µg/mL
OC(Cn1cncn1)(Cn1cncn1)c1ccc(F)cc1F | ATCC32609 | MIC80 | 0.82 µM